Anti-infective test results gathered from many reports (values: NIAID ChemDB through PubChem).

Shared fields: tests in culture; species: HIV-1; cell line: MT-4; read-out: EC50

Blank or dashed fields: not listed here. ECn: concentration that inhibits the pathogen or its effect by n%. Lines come from different laboratories, so protocols vary.

N#Cc1ccc(Nc2nccc(C(Cl)c3ccc(F)cc3)n2)cc1 ; strain: IIIB ; mutations: K103N + Y181C ; method: MTT ; result: 35.4 µM
CN1CCCC(CC2c3ccccc3Sc3ccccc32)C1 ; strain: LAV ; result: >100 µg/mL
CCCCCCCCCCCC(=O)O[C@@]12C[C@@H](C)[C@]34C=C(C)[C@H](O)[C@@]3(O)[C@H](O)C(COC(=O)c3ccccc3)=C[C@H](C4=O)[C@@H]1C2(C)C ; method: cytopathic effect / MTT ; result: 0.001 µg/mL
CC(=O)c1ccc(C)cc1NC(C(N)=O)c1c(Cl)cccc1Cl ; strain: IIIB ; method: cytopathic effect / MTT ; result: 0.013 µM
Cc1cc(C=O)cc(C)c1Oc1ncc(NC(=O)C(F)(F)F)c(Nc2ccc(C#N)cc2)n1 ; strain: RES056 ; method: MTT ; result: 35.46 µM
C(=C\c1ccccc1)/CN1CCN(C(c2ccccc2)c2ccccc2)CC1 ; strain: LAV ; result: >100 µg/mL
COc1ccc2c(c1)c(CC(=O)O)c(C)n2C(=O)c1ccc(Cl)cc1 ; strain: IIIB ; method: XTT / p24 ; result: 10 µM
CC(C)C[C@H](NC(=O)[C@H](Cc1ccccc1)C[C@H](O)[C@H](Cc1ccccc1)NC(=O)OC(C)(C)C)C(=O)N[C@@H](Cc1ccccc1)C(N)=O ; strain: IIIB ; method: p24 ; result: <6 µM
N#Cc1ccc(Nc2nc(Oc3c(Cl)cc(Cl)cc3Cl)ncc2[N+](=O)[O-])cc1 ; strain: IIIB ; method: MTT ; result: 7.4 µM
Cc1cn([C@@H]2O[C@H](CO[Si](C)(C)C(C)(C)C)C3(OC(=O)N=C3N)[C@H]2O[Si](C)(C)C(C)(C)C)c(=O)[nH]c1=O ; strain: IIIB ; result: >35 µM
Nc1nc(=O)n([C@@H]2CS[C@H](CO)O2)cc1F ; strain: IIIB ; method: cytopathic effect ; result: 0.5 µM
C=C(C)[C@]12C[C@@H](COC(C)=O)[C@@]34OC5(O[C@@H]1[C@@H]3[C@@H]1O[C@]1(CO)[C@@H](O)[C@@]1(O)[C@H]4[C@H]([C@H](C)[C@@H]1OC(=O)c1ccccc1)[C@H](C)CC(OC(=O)c1ccccc1)C(OC(=O)c1ccccc1)CCC[C@H]5O)O2 ; strain: NL4-3 ; method: p24 / ELISA ; result: 0.00016 µM
C1CNCCNCCCNCCNC1.[Cl-].[O]=[V+2] ; strain: IIIB ; method: MTT ; result: >360 µM
N#Cc1ccc(Nc2nc(Oc3c(Cl)cc(Cl)cc3Cl)ncc2NC(=O)C(F)(F)F)cc1 ; strain: RES056 ; method: MTT ; result: 23.65 µM
Nc1nc2c(ncn2[C@H]2C=C[C@@H](CO)O2)c(=O)[nH]1 ; strain: LAV ; method: trypan blue ; result: >5 µM
O=C(OCC1(COC(=O)c2cccnc2)CCCC(COC(=O)c2cccnc2)(COC(=O)c2cccnc2)C1O)c1cccnc1 ; strain: LAV ; result: >100 µg/mL
CCCCCCCCCCCCCC(=O)OC[C@H](COP(=O)(O)OC[C@@H]1CC[C@H](n2cnc3c(=O)[nH]c(N)nc32)O1)OC(=O)CCCCCCCCCCCCC ; strain: IIIB ; method: ELISA ; result: <10 µM
Cc1cn([C@H]2C=C[C@@H](CO)O2)c(=O)[nH]c1=O ; strain: IIIB WT ; method: cytopathic effect / MTT ; result: 0.26 µM
CCCCCCCCCCCC(=O)O[C@H]1C(C)=C[C@]23C(=O)[C@@H](C=C(CO)[C@@H](O)[C@]12O)[C@@H]1C(C)(C)[C@]1(OC(=O)CCCCCCCCCCC)C[C@H]3C ; method: cytopathic effect / MTT ; result: 0.014 µg/mL
COC(=O)N[C@H](C(=O)N[C@@H](Cc1ccc(C#Cc2cnc(N3CC4CCC(C3)N4C3COC3)nc2)cc1)[C@H](CN(Cc1c(F)cc(-c2ccn(C(F)F)n2)cc1F)NC(=O)[C@@H](NC(=O)OC)C(C)(C)C(F)(F)F)OC(=O)CC(C)(C)c1c(CC(=O)NCc2cc(C#N)cc(C(=O)O)c2)cc(C)cc1OP(=O)(O)O)C(C)(C)C(F)(F)F ; strain: IIIB ; method: luminescence ; result: 0.2345 µM
O=C(Cn1c(=O)sc2ccc(Cl)cc21)N1CCN(CCO)CC1 ; strain: LAV ; result: >100 µg/mL
Cc1cc(C=O)cc(C)c1Oc1ncc([N+](=O)[O-])c(Nc2ccc(C#N)cc2)n1 ; strain: IIIB ; method: MTT ; result: 0.6164 µM
O=C1N(Cc2ccc(CO)cc2)[C@H](Cc2ccccc2)[C@H](O)[C@@H](O)[C@@H](Cc2ccccc2)N1Cc1ccc(CO)cc1 ; strain: IIIB ; mutations: PR-L90M ; method: cytopathic effect / XTT ; result: 0.3 µM
Cc1cn([C@@H]2O[C@H](CC3CCCCC3)C3(OS(=O)(=O)C=C3N)[C@H]2O[Si](C)(C)C(C)(C)C)c(=O)[nH]c1=O ; strain: IIIB ; method: cytopathic effect / trypan blue ; result: >4 µg/mL
COC(=O)N[C@H](C(=O)N[C@@H](Cc1ccccc1)[C@@H](O)CN(Cc1ccc(-c2ccccn2)cc1)NC(=O)[C@@H](NC(=O)OC)C(C)(C)C)C(C)(C)C ; strain: NL4-3 ; method: p24 ; result: 0.0036 µM
C=CCOc1ccccc1OCC(O)CNC(C)C ; strain: LAV ; result: >100 µg/mL
COC(=O)N[C@H](C(=O)N[C@@H](Cc1ccc(C#Cc2cnc(N3CC4CCC(C3)N4C3COC3)nc2)cc1)[C@H](CN(Cc1c(F)cc(-c2ccn(C(F)F)n2)cc1F)NC(=O)[C@@H](NC(=O)OC)C(C)(C)C(F)(F)F)OC(=O)CC(C)(C)c1c(CC(=O)Nc2ccc(C(=O)O)cc2)cc(C)cc1OP(=O)(O)O)C(C)(C)C(F)(F)F ; strain: IIIB ; method: luminescence ; result: 0.251 µM
Nc1ccn([C@H]2CC[C@@H](CO)O2)c(=O)n1 ; strain: IIIB ; method: antigen ; result: 1.6 µM
Cc1ncc(CSSCc2cnc(C)c(O)c2CO)c(CO)c1O ; strain: LAV ; result: >100 µg/mL
CC1=C[C@]23C(=O)[C@@H](C=C(COC(=O)C(C)(C)C)[C@@H](O)[C@]2(O)[C@H]1O)[C@H]1[C@@H](C[C@H]3C)C1(C)C ; method: cytopathic effect / MTT ; result: 0.013 µg/mL
CC(=O)Nc1cnc(Oc2c(C)cc(C=O)cc2C)nc1Nc1ccc(C#N)cc1 ; strain: RES056 ; method: MTT ; result: >237 µM
Cc1cn([C@@H]2O[C@H](CO[Si](C)(C)C(C)(C)C)C3(OS(=O)(=O)C=C3N)[C@H]2O[Si](C)(C)C(C)(C)C)c(=O)n(C)c1=O ; strain: IIIB ; result: 0.06 µM
Cc1cn([C@H]2C[C@H](N=[N+]=[N-])[C@@H](COC(=O)C(=O)N[C@@H](CO)C(=O)N[C@@H](Cc3ccccc3)C(=O)N[C@@H](CC(C)C)C(=O)N[C@H](C(=O)O)[C@@H](C)O)O2)c(=O)[nH]c1=O ; strain: IIIB ; method: antigen ; result: 0.022 µM
C=C(C)[C@]12C[C@@H](COC(C)=O)[C@@]34OC5(O[C@@H]1[C@@H]3[C@@H]1O[C@]1(CO)[C@@H](O)[C@@]1(O)[C@H]4[C@H]([C@H](C)[C@@H]1OC(=O)c1ccccc1)[C@H](C)CC(OC(=O)c1ccccc1)C(OC(C)=O)C(OC(=O)c1ccccc1)CC[C@H]5O)O2 ; strain: NL4-3 ; method: p24 / ELISA ; result: 0.00025 µM
COc1ccc2cc([C@H](C)C(=O)O)ccc2c1 ; strain: IIIB ; method: XTT / p24 ; result: >100 µM
N#Cc1ccc(Nc2nc(Oc3c(Br)cc(Br)cc3Br)ncc2N)cc1 ; strain: RES056 ; method: MTT ; result: 4.92 µM
CC(=O)O[C@@H]1[C@H](n2cc(C)c(=O)[nH]c2=O)O[C@@H](COC(=O)c2ccccc2)C12OS(=O)(=O)C=C2N ; strain: IIIB ; method: cytopathic effect / trypan blue ; result: 35 µg/mL
CC(C)=CCN1c2cc(Cl)cc3[nH]c(=S)n(c23)C[C@@H]1C ; mutations: RT-K70R K101E ; result: <1.5 µM
CC(C)CC(NC(=O)C(Cc1ccccc1)NC(=O)C(N)CO)C(=O)NC(C(=O)O)C(C)O ; strain: IIIB ; method: antigen ; result: 100 µM
Cc1cn([C@@H]2O[C@@H](CO[Si](C)(C)C(C)(C)C)C3(OS(=O)(=O)C=C3N)[C@@H]2O[Si](C)(C)C(C)(C)C)c(=O)[nH]c1=O ; strain: IIIB ; method: cytopathic effect / trypan blue ; result: >100 µg/mL
CN1C(=O)CN=C(c2ccccc2)c2cc(Cl)ccc21 ; strain: LAV ; result: >100 µg/mL
Nc1nc2c(ncn2[C@H]2CC[C@@H](CO)O2)c(=O)[nH]1 ; strain: IIIB ; method: ELISA ; result: <10 µM
Nc1ccn([C@H]2C=C[C@@H](CO)O2)c(=O)n1 ; strain: LAV ; method: trypan blue ; result: 0.13 µM
Cc1cn([C@H]2C[C@H](N=[N+]=[N-])[C@@H](CO)O2)c(=O)[nH]c1=O ; strain: IIIB ; method: cytopathic effect / XTT ; result: 0.0068 µg/mL
Cc1cn([C@@H]2C[C@@H](N=[N+]=[N-])[C@H](COP(N)(=O)OC[C@H]3O[C@@H](n4cc(C)c(=O)[nH]c4=O)C[C@@H]3N=[N+]=[N-])O2)c(=O)[nH]c1=O ; strain: IIIB ; method: cytopathic effect / MTT ; result: 0.39 µM
CC(C)(C)NCC(O)c1ccc(O)c(CO)c1 ; strain: LAV ; result: >100 µg/mL
CC1COc2c(N3CCN(C)CC3)c(F)cc3c(=O)c(C(=O)O)cn1c23 ; strain: IIIB ; method: cytopathic effect / XTT ; result: >50 µg/mL
CC(C)CN(C[C@@H](O)[C@H](Cc1ccccc1)NC(=O)O[C@H]1CCOC1)S(=O)(=O)c1ccc(N)cc1 ; strain: NL4-3 ; method: p24 ; result: 0.023 µM
O=c1ccn([C@H]2CC[C@@H](CO)O2)c(=O)[nH]1 ; strain: LAV ; method: trypan blue ; result: 48 µM
CC(C)=CCC/C(C)=C/CC/C(C)=C/CCC(=O)OC/C=C(\C)CCC=C(C)C ; strain: LAV ; result: >100 µg/mL
Cc1cn([C@H]2CC[C@@H](CO)O2)c(=O)[nH]c1=O ; strain: LAV ; method: trypan blue ; result: 0.2 µM
[N-]=[N+]=NC[C@]1(CO)C[C@@H](n2cnc3c(N)ncnc32)CO1 ; strain: IIIB ; result: >100 µM
Cc1cc(C)c(Oc2ncc(NC(=O)C(F)(F)F)c(Nc3ccc(C#N)cc3)n2)c(C)c1 ; strain: IIIB ; method: MTT ; result: 0.0385 µM
O=c1[nH]cnc2c1ncn2[C@H]1CC[C@@H](CO)O1 ; strain: Clinical isolate (RT M41L) ; mutations: RT-M41L ; method: RT activity ; result: 2.4 µM
CO[C@H]1O[C@@H](n2ccc(=O)[nH]c2=O)C[C@@H]1N=[N+]=[N-] ; strain: LAV ; method: trypan blue ; result: 0.36 µM
Cc1cc(C)c(Oc2ncc([N+](=O)[O-])c(Nc3ccc(C#N)cc3)n2)c(C)c1 ; strain: IIIB ; method: MTT ; result: 0.0426 µM
C#C[C@@]1(CO)C=C[C@H](n2cc(C)c(=O)[nH]c2=O)O1 ; strain: IIIB ; method: cytopathic effect / MTT ; result: 0.07 µM

Again, the opening 8 rows:

smiles,strain,mutations,method,result
N#Cc1ccc(Nc2nccc(C(Cl)c3ccc(F)cc3)n2)cc1,IIIB,K103N + Y181C,MTT,35.4 µM
CN1CCCC(CC2c3ccccc3Sc3ccccc32)C1,LAV,,,>100 µg/mL
CCCCCCCCCCCC(=O)O[C@@]12C[C@@H](C)[C@]34C=C(C)[C@H](O)[C@@]3(O)[C@H](O)C(COC(=O)c3ccccc3)=C[C@H](C4=O)[C@@H]1C2(C)C,,,cytopathic effect / MTT,0.001 µg/mL
CC(=O)c1ccc(C)cc1NC(C(N)=O)c1c(Cl)cccc1Cl,IIIB,,cytopathic effect / MTT,0.013 µM
Cc1cc(C=O)cc(C)c1Oc1ncc(NC(=O)C(F)(F)F)c(Nc2ccc(C#N)cc2)n1,RES056,,MTT,35.46 µM
C(=C\c1ccccc1)/CN1CCN(C(c2ccccc2)c2ccccc2)CC1,LAV,,,>100 µg/mL
COc1ccc2c(c1)c(CC(=O)O)c(C)n2C(=O)c1ccc(Cl)cc1,IIIB,,XTT / p24,10 µM
CC(C)C[C@H](NC(=O)[C@H](Cc1ccccc1)C[C@H](O)[C@H](Cc1ccccc1)NC(=O)OC(C)(C)C)C(=O)N[C@@H](Cc1ccccc1)C(N)=O,IIIB,,p24,<6 µM